The record followed here is publication PMC9729238 (Communications Biology, 2022).

In experiment [1] the target is α-bungarotoxin from Bungarus multicinctus (α-Bgtx) (Bungarus multicinctus) (UniProt P60615). The experiment can be described thus: SPR.
The target of experiment [2] is T1, Nicotinic acetylcholine receptor of α7 type (α7-nAChR) expressed in HEK293 cells (UniProt P36544 23-502).
T1 construct: also called full-length α7 receptor; α7 receptor
The experiment can be described thus: flow cytometry on cells.

A word on the Kd: it is the concentration at which binding is half-saturated. Molecule “Chimera of the α7-nAChR extracellular domain with acetylcholine-binding protein (α7-ECD) (domain or fragment)” displayed a Kd in experiment [1] of 26 nM.

B1: α-bungarotoxin from Bungarus multicinctus (α-Bgtx) (natural protein)
chain: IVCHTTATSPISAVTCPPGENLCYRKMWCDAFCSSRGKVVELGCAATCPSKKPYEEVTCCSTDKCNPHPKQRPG
As a reminder, the IC50 is the concentration that gives 50% inhibition. Lower therefore signals inhibition by little substance. Regarding B1, the IC50 in experiment [2] is 3.2 nM.
